# T1: recombinant full-length calnexin (CNX), purified by the CL7/Im7 system (UniProt P27824 21-592)
# T1 sequence (looked up): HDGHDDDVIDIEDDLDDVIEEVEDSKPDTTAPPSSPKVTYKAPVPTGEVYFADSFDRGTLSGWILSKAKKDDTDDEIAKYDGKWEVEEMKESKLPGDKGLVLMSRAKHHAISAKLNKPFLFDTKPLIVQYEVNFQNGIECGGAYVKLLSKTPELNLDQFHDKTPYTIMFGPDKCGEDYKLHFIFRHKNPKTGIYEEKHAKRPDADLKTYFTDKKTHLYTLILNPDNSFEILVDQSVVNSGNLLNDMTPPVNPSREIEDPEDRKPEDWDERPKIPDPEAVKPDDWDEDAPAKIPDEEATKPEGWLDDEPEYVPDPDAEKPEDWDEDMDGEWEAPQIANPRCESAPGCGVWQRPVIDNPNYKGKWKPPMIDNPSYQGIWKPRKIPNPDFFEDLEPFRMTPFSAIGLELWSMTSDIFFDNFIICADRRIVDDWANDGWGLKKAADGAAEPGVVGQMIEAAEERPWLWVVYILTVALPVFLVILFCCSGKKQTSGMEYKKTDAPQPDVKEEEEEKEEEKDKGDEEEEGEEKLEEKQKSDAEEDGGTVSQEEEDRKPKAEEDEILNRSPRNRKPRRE
# B1: myristoylated NefSF2 protein (natural protein)
# chain: not shown
# modifications: myristoylated
# Target: T1, recombinant full-length calnexin (CNX), …
# Assay: SPR
binder,measurement,value
B1,Kd,89.1 nM
same,koff,0.0119 s⁻¹
same,kon,134000 M⁻¹ s⁻¹
